# Assay results reported in publication PMC12836348, “Alanine Mutagenesis Identifies Specific Amino Acids of Nemertide Alpha‑1 Activity and Its Binding to Target Receptors” (Journal of Natural Products, 2025).
# Experiments:
# BgNav1 = assay: Two-electrode voltage clamp, BgNav1 expressed in Xenopus laevis oocytes; format: cell-based, Blattella germanica; set-up: key to effect on BgNav: “+” means tested and produced effect; “–“ means tested but no effect
# hNav1.1 = target: T1, hNav1.1 (Homo sapiens, UniProt P35498); assay: Two-electrode voltage clamp, Nav1.1 in Xenopus laevis oocytes; format: cell-based; set-up: key to effect on Nav1.1: “+” means tested and produced effect; “–“ means tested but no effect; conditions: S12A at 5 μM; Xenopus oocytes, n ≥ 3
# T1 construct: expressed in transfected cells; host or cells: Xenopus laevis oocytes (cRNA injection)
# rNaV1.2 = target: T2, rNaV1.2 (Rattus norvegicus, UniProt P04775); assay: Two-electrode voltage clamp, Nav1.2 in Xenopus laevis oocytes; format: cell-based; set-up: key: “+” means tested and produced effect; “–“ means tested but no effect; conditions: S12A at 5 μM, n ≥ 3
# T2 construct: expressed in transfected cells; host or cells: Xenopus laevis oocytes (cRNA injection)
# rNaV1.3 = target: T3, rNaV1.3 (Rattus norvegicus, UniProt P08104); assay: Two-electrode voltage clamp, Nav1.3 in Xenopus laevis oocytes; format: cell-based; set-up: key to effect on Nav1.3: “+” means tested and produced effect; “–“ means tested but no effect; conditions: S12A at 5 μM; Xenopus oocytes, n ≥ 3
# T3 construct: expressed in transfected cells; host or cells: Xenopus laevis oocytes (cRNA injection)
# rNaV1.4 = target: T4, rNaV1.4 (Rattus norvegicus, UniProt P15390); assay: Two-electrode voltage clamp, Nav1.4 in Xenopus laevis oocytes; format: cell-based; set-up: key to effect on Nav1.4: “+” means tested and produced effect; “–“ means tested but no effect; conditions: S12A at 5 μM; Xenopus oocytes, n ≥ 3
# T4 construct: expressed in transfected cells; host or cells: Xenopus laevis oocytes (cRNA injection)
# hNav1.7 = target: T5, hNav1.7 (Homo sapiens, UniProt Q15858); assay: Two-electrode voltage clamp, Nav1.7 in Xenopus laevis oocytes; format: cell-based; set-up: key to effect on Nav1.7: “+” means tested and produced effect; “–“ means tested but no effect; conditions: S12A at 5 μM; Xenopus oocytes, n ≥ 3
# T5 construct: expressed in transfected cells; host or cells: Xenopus laevis oocytes (cRNA injection)
structure (smiles),measurement,setting,value
CC[C@H](C)[C@@H]1NC(=O)[C@@H](NC(=O)CN)CSSC[C@@H]2NC(=O)[C@@H]3CSSC[C@@H](C(=O)N[C@@H](CC(N)=O)C(=O)N4C[C@H](O)C[C@H]4C(=O)N4C[C@H](O)C[C@H]4C(=O)N[C@@H](CC(N)=O)C(=O)N[C@@H](CCC(N)=O)C(=O)O)NC(=O)[C@H](CCCCN)NC(=O)[C@H](Cc4ccccc4)NC(=O)[C@H](CC(N)=O)NC(=O)[C@H](Cc4c[nH]c5ccccc45)NC(=O)CNC(=O)[C@H](CSSC[C@H](NC(=O)[C@H](Cc4ccccc4)NC(=O)[C@H](CO)NC(=O)CNC(=O)[C@H]([C@@H](C)O)NC(=O)[C@H](C)NC1=O)C(=O)N[C@@H]([C@@H](C)O)C(=O)N[C@@H](CC(C)C)C(=O)N[C@@H](C)C(=O)N[C@@H](CCCCN)C(=O)NCC(=O)N3)NC(=O)[C@H](CC(N)=O)NC(=O)[C@H](CCCCN)NC(=O)[C@H]([C@@H](C)O)NC2=O [Peptide S12A],fold increase in EC50 on BgNav1 relative to alpha-1 (times lower activity),BgNav1,33 fold and 28 fold
same,effect on BgNav,"BgNav1; S12A at 5 μM, Xenopus oocytes, n ≥ 3",+
same,effect on Nav1.1,hNav1.1,–
same,effect on Nav1.2,rNaV1.2,–
same,effect on Nav1.3,rNaV1.3,–
same,effect on Nav1.4,rNaV1.4,–
same,effect on Nav1.7,hNav1.7,–

# Several values for one entry are separate records, joined by “and”; a condition that tells them apart may be missing. Equal entries are not always repeated.
